Results deposited as PubChem BioAssay AID1259414 (Drosophila RNAi Screening Center, 2018).
The screen tested about 24,000 reagents; shown is an unselected part of those with a known target gene and a result. Over the whole deposit, about 1,210 (5%) were called active. 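Inactive calls also include excluded dsRNAs with several or no targets, genes unexpressed in JW18, and well A1, regardless of score.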 Names joined by + are all predicted targets of the reagent.

Screen: 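Genome-wide screen for host control of endosymbiont load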 (primary screen)
System: Drosophila JW18 cells infected with Wolbachia
Reagents: long dsRNA against Drosophila genes, 0.25 µg dsRNA per well of a 384-well plate
Time to read-out: 5 days
Conditions: cells persistently infected with Wolbachia before knock-down; no added drug
Detection: 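Imaged fluorescence in situ signal for Wolbachia 23S rRNA per DAPI-counted host cell, given as a robust z-score within each plate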
Direction: Wolbachia per cell robust z: higher = more Wolbachia per host cell than the plate typical
Call rule: 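Hit when robust z is 1.5 or more, or -1.5 or less, in at least two of three replicates; excludes dsRNAs with several or no targets, genes not expressed in JW18 and well A1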

After knock-down of acj6 [DRSC20304] the results were Wolbachia per cell robust z, rep 1 = 0.146; Wolbachia per cell robust z, rep 2 = 0.399; Wolbachia per cell robust z, rep 3 = -0.79; inactive.
Depletion of acj6 [DRSC29003] gave: Wolbachia per cell robust z, rep 1 = 0.907; Wolbachia per cell robust z, rep 2 = 0.867; Wolbachia per cell robust z, rep 3 = -0.603; inactive.
Tao [DRSC19573] showed Wolbachia per cell robust z, rep 1 = 0.225; Wolbachia per cell robust z, rep 2 = 0.197; Wolbachia per cell robust z, rep 3 = 0.38; inactive.
Depletion of Tao [DRSC19574] resulted in: Wolbachia per cell robust z, rep 1 = 2.13; Wolbachia per cell robust z, rep 2 = 4.22; Wolbachia per cell robust z, rep 3 = 0.339; active.
Tao [DRSC22639] scored Wolbachia per cell robust z, rep 1 = -0.363; Wolbachia per cell robust z, rep 2 = -1.86; Wolbachia per cell robust z, rep 3 = 0.397; inactive.
After knock-down of Tao [DRSC28431], the record shows Wolbachia per cell robust z, rep 1 = -3.29; Wolbachia per cell robust z, rep 2 = 0.628; Wolbachia per cell robust z, rep 3 = -0.0149; inactive.
Ercc1 [DRSC07424] scored Wolbachia per cell robust z, rep 1 = 1.42; Wolbachia per cell robust z, rep 2 = 0.138; Wolbachia per cell robust z, rep 3 = 0.442; inactive.
Mkk4 [DRSC16739] scored Wolbachia per cell robust z, rep 1 = 1.25; Wolbachia per cell robust z, rep 2 = -0.254; Wolbachia per cell robust z, rep 3 = 0.486; inactive.
For Mkk4 [DRSC29113], the values are Wolbachia per cell robust z, rep 1 = -1.44; Wolbachia per cell robust z, rep 2 = -0.151; Wolbachia per cell robust z, rep 3 = 0.409; inactive.
With knock-down of kat-60L1 [DRSC12184] the results were Wolbachia per cell robust z, rep 1 = -0.81; Wolbachia per cell robust z, rep 2 = 0.141; Wolbachia per cell robust z, rep 3 = 0.276; inactive.
kat-60L1 [DRSC25414] scored Wolbachia per cell robust z, rep 1 = 1.17; Wolbachia per cell robust z, rep 2 = 0.0549; Wolbachia per cell robust z, rep 3 = -0.928; inactive.
After knock-down of CSN1a [DRSC01951] the results were Wolbachia per cell robust z, rep 1 = 0.263; Wolbachia per cell robust z, rep 2 = 0.64; Wolbachia per cell robust z, rep 3 = -0.242; inactive.
With knock-down of GluClalpha [DRSC16680], the screen gave Wolbachia per cell robust z, rep 1 = -3.14; Wolbachia per cell robust z, rep 2 = -1.3; Wolbachia per cell robust z, rep 3 = -4.81; inactive.
Silencing of Mnr [DRSC20549] gave: Wolbachia per cell robust z, rep 1 = -0.649; Wolbachia per cell robust z, rep 2 = -0.775; Wolbachia per cell robust z, rep 3 = -1.04; inactive.
Depletion of Mnr [DRSC20550] resulted in: Wolbachia per cell robust z, rep 1 = 0.566; Wolbachia per cell robust z, rep 2 = -3.16; Wolbachia per cell robust z, rep 3 = 0.00915; inactive.
Mnr [DRSC22441] showed Wolbachia per cell robust z, rep 1 = 0.804; Wolbachia per cell robust z, rep 2 = -6.69; Wolbachia per cell robust z, rep 3 = -0.46; inactive.
After knock-down of Rexo5 [DRSC10981], the record shows Wolbachia per cell robust z, rep 1 = -2.08; Wolbachia per cell robust z, rep 2 = 0.787; Wolbachia per cell robust z, rep 3 = -0.733; inactive.
Knock-down of CG7484 [DRSC10853] came out at: Wolbachia per cell robust z, rep 1 = 0.424; Wolbachia per cell robust z, rep 2 = 0.756; Wolbachia per cell robust z, rep 3 = 0.772; inactive.
CG11178 [DRSC19396] gave Wolbachia per cell robust z, rep 1 = 0.426; Wolbachia per cell robust z, rep 2 = -4.42; Wolbachia per cell robust z, rep 3 = -1.84; active.
After knock-down of CG33704 [DRSC38898], the record shows Wolbachia per cell robust z, rep 1 = -1.02; Wolbachia per cell robust z, rep 2 = -0.128; Wolbachia per cell robust z, rep 3 = -0.638; inactive.
With knock-down of Ir25a [DRSC00462] the results were Wolbachia per cell robust z, rep 1 = -0.119; Wolbachia per cell robust z, rep 2 = 0.255; Wolbachia per cell robust z, rep 3 = 1.02; inactive.
Silencing of Ir25a [DRSC26910] resulted in: Wolbachia per cell robust z, rep 1 = -6.75; Wolbachia per cell robust z, rep 2 = -0.631; Wolbachia per cell robust z, rep 3 = -1.23; inactive.
For mthl9 [DRSC08506] the deposit lists Wolbachia per cell robust z, rep 1 = 0.401; Wolbachia per cell robust z, rep 2 = 0.358; Wolbachia per cell robust z, rep 3 = -0.711; inactive.
Against tctn + B9d2 [DRSC03160] the deposit lists Wolbachia per cell robust z, rep 1 = 0.154; Wolbachia per cell robust z, rep 2 = -1.05; Wolbachia per cell robust z, rep 3 = -0.768; inactive.
With knock-down of fwd [DRSC08580] the results were Wolbachia per cell robust z, rep 1 = 1.42; Wolbachia per cell robust z, rep 2 = 1.04; Wolbachia per cell robust z, rep 3 = 0.655; inactive.
With knock-down of fwd [DRSC26680], the record shows Wolbachia per cell robust z, rep 1 = 1.94; Wolbachia per cell robust z, rep 2 = -0.215; Wolbachia per cell robust z, rep 3 = 1.05; inactive.
CR33255 + CR42838 + hpRNA:CR32205 [DRSC09611] showed Wolbachia per cell robust z, rep 1 = 0.36; Wolbachia per cell robust z, rep 2 = 0.442; Wolbachia per cell robust z, rep 3 = 0.0424; inactive.
Depletion of Tsf2 [DRSC09751] resulted in: Wolbachia per cell robust z, rep 1 = -6.87; Wolbachia per cell robust z, rep 2 = -0.585; Wolbachia per cell robust z, rep 3 = -0.521; inactive.
Tsp97E [DRSC16019] showed Wolbachia per cell robust z, rep 1 = -4.8; Wolbachia per cell robust z, rep 2 = -0.726; Wolbachia per cell robust z, rep 3 = 0.00386; inactive.
Tsp97E [DRSC28053] showed Wolbachia per cell robust z, rep 1 = -0.479; Wolbachia per cell robust z, rep 2 = -0.781; Wolbachia per cell robust z, rep 3 = 1.02; inactive.
